# Experimental data: patent US20180344813A1, “ENGINEERED POLYPEPTIDES HAVING ENHANCED DURATION OF ACTION WITH REDUCED IMMUNOGENICITY” (priority 2016, published 2018)
# Tested on: CD3+ CD4+ T cells
substance,measurement,value
"tetanus toxoid [TT, reference compound]",number of responding individuals,49
